Article PMC4552634, “A New Set of Chemical Starting Points with Plasmodium falciparum Transmission-Blocking Potential for Antimalarial Drug Discovery” (PLoS ONE, 2015)

Test system: P. falciparum stage V gametocytes
Settings: 48 h, 5 µM; inhibitor

Question: With CC(C)(C)c1cc2cc(N(C(=O)c3ccc(C(F)(F)F)cc3)C3CCN(Cc4ccccc4)CC3)ccc2[nH]1 as the compound, how does the “% Inhibition” value read?
Answer: -2.684%

Some compounds may have been tested in ways that are not shown here.
